Pooled drug test results. Numbers come from NIAID ChemDB, via PubChem.

All rows: whole-cell or culture tests; agent: Plasmodium falciparum; measure: EC50

ECn is the concentration giving n% inhibition of infection, replication or growth. Blank or dashed fields: not listed here. Neighbouring rows are from separate reports.

smiles	strain	mutations	method	value
Cc1[nH]nc2c1C(c1cc(C#N)cc(-c3ccc(C(=O)N(C)C)s3)c1)(C(C)C)C(C#N)=C(N)O2	V1/S	-	radiometric	0.092 µM
Cn1nc(C(F)(F)F)c(-c2ccc(Br)cc2)c1NC(=O)Nc1ccc(F)cc1F	GNF-Pf4492R-2	GNF-Pf4492-resistant I203L/P990R	SYBR Green / fluorescence	0.811 µM
N=C(N)c1ccc(OCCOc2ccc(C(=N)N)cc2N)c(N)c1	D6	-	hypoxanthine uptake	0.779 µM
O=C(Nc1cc(C(F)(F)F)ccc1-n1cncn1)C1(c2cccc(C(F)(F)F)c2)CC1	HB3	-	-	0.005 µM
CCCCCCCCCCCC(=O)NC(CCCC[NH3+])C(=O)NC(CCCC[NH3+])C(=O)NCCCCCCCC(=O)NC(CCCC[NH3+])C(N)=O	NF54	-	hypoxanthine uptake	>10 µM
COC(=O)C1=C(C)N(Cc2ccc(C(F)(F)F)cc2)C(=NCc2cccc(C(F)(F)F)c2)NC1c1cccc(Cl)c1	7G8	-	SYBR Green / fluorescence	5.5 µM
CCCCCCCCCCCC(=O)NC(CCCC[NH3+])C(=O)NC(CCCC[NH3+])C(=O)NCCCCCCCCCC(=O)NC(CCCC[NH3+])C(N)=O	NF54	-	hypoxanthine uptake	>10 µM
Cc1[nH]nc2c1C(c1cc(Cl)cc(-c3cccnc3)c1)(C1CCC1)C(C#N)=C(N)O2	NF54	-	radiometric	0.7 µM
Cc1c(-c2ccc(-c3ccc(OC(C)(C)C)cc3)nc2)[nH]c2cc(F)ccc2c1=O	3D7	-	SYBR Green	0.075 µM
CCOC(=O)C1=C(C(=O)OCC)C2N(Cc3ccccc3C(F)(F)F)c3ccccc3[C@@]23C[C@@H](C(=O)OC)N(S(=O)(=O)c2c(C)noc2C)C3=N1	7G8 GB4	-	SYBR Green / fluorescence	0.7 µM
CCN(CC)CCCC(C)Nc1ccnc2cc(Cl)ccc12	FCR3	-	broth dilution	0.18 µM
N=C(N)c1ccc(NCCCCCNc2ccc(C(=N)N)cc2)cc1	D6	-	hypoxanthine uptake	0.03 µM
c1ccc(CNC23OC4C5C2C2C5C56CC25C3C46)cc1	D10	-	LDH / absorbance	>2 µM
COc1cc2c(cc1OC)[C@H]1O[C@](CCCCN3C(=O)c4ccccc4C3=O)(C2)OC2=C1C(=O)CC(C)(C)C2	HB3 Dd2	-	SYBR Green / fluorescence	3.8 µM
C[C@@]1(C(=O)O)CC[C@]2(C)CC[C@]3(C)C4=CC5C(=CN/C=C6\C(=O)CC[C@]7(C)CC8CC[C@@]9(C)C%10C[C@](C)(C(=O)O)CC[C@]%10(C)CC[C@]9(C)C8=CC67)C(=O)CC[C@]5(C)CC4CC[C@@]3(C)C2C1	FCM29	CQ-resistant	SYBR Green	16.6 µM
C=C(C)C1CC[C@]2(C(=O)O)CC[C@@]3(C)[C@]4(C)CC[C@H]5C(C)(C)[C@@H](OC(=O)/C=C/c6ccc(O)cc6)CC[C@]5(C)[C@H]4CC[C@]3(C)[C@@H]12	D10	-	LDH	15.3 µM
O=C1[C@@H](NCCNc2ccnc3cc(Cl)ccc23)[C@@H](/C=C/c2ccccc2)N1c1ccc(F)cc1	W2	Chloroquine-resistant	flow cytometry	0.0596 µM
COc1ccc(/C=C/C(=O)c2ccc(-n3ccnc3)cc2)cc1OC	-	-	-	7.34 µg/mL
CCC(C)(C(=O)Nc1cc(C(F)(F)F)ccc1-n1cncn1)c1cccc(C(F)(F)F)c1	3D7	-	-	0.003 µM
COc1ccc(Nc2nc(NCCCCNc3ccnc4cc(Cl)ccc34)nc(N3CCOCC3)n2)cc1	D6	-	-	0.07 µM
N=C(N)c1ccc(NCCCCNc2ccc(C(=N)N)cc2N)c(N)c1	W2	-	hypoxanthine uptake	0.522 µM
COc1ccc(Nc2nc(NCCNc3ccnc4cc(Cl)ccc34)nc(N3CCOCC3)n2)cc1	W2	-	-	0.59 µM
CC(C)CN1C(=O)[C@@H](NCCNc2ccnc3cc(Cl)ccc23)[C@H]1/C=C/c1ccccc1	W2	Chloroquine-resistant	flow cytometry	0.4246 µM
COC(=O)C1=C(C)N(Cc2cccc(C(F)(F)F)c2)C(=NCc2cccc(C(F)(F)F)c2)NC1c1cccc(Cl)c1	GB4	-	SYBR Green / fluorescence	0.04 µM
C[C@H]1Cc2c([nH]c3cc(Cl)c(F)cc23)[C@@]2(N1)C(=O)Nc1ccc(Cl)cc12	KAE678R-1	KAE678-resistant (G223R)	SYBR Green / fluorescence	0.00414 µM
COc1ccc(/C=C/C(=O)c2ccc(N3CCCC3)cc2)c(OC)c1	-	-	-	2.37 µg/mL
N=C(N)c1cccc(OCCCOc2cccc(C(=N)N)c2)c1	D6	-	hypoxanthine uptake	0.14 µM
CCCCCCCCCCCCCCC#CC(=O)O	K1	-	-	41.2 µM
CCN(CC)CCCC(C)Nc1ccnc2cc(Cl)ccc12	KAE609R-3	KAE609-resistant pfatp4 D1247Y	SYBR Green / fluorescence	0.013 µM
COC(=O)C1=C(C(=O)OC)C2N(Cc3ccccc3)c3ccccc3[C@@]23C[C@@H](C(=O)OC)N(S(=O)(=O)c2ccc(Br)cc2)C3=N1	7G8 GB4	-	SYBR Green / fluorescence	2.5 µM
COc1ccc(OC)c(/C=C/C(=O)c2ccc(N3CCCC3)cc2)c1	-	-	-	5.53 µg/mL
NCCCCCCCC(=O)NC(CCCC[NH3+])C(=O)NCCCCCCCC(=O)NC(CCCC[NH3+])C(=O)NCCCCCCCC(=O)NC(CCCC[NH3+])C(=O)NCCCCCCCC(=O)NC(CCCC[NH3+])C(=O)NCCCCCCCC(=O)NC(CCCC[NH3+])C(=O)NCCCCCCCC(=O)NC(CCCC[NH3+])C(N)=O	FCR3	-	hypoxanthine uptake	71 µM
COc1ccc(OC)c(/C=C/C(=O)c2ccc(-n3nnc4ccccc43)cc2)c1	-	-	-	12.73 µg/mL
CCOc1ccc(F)cc1C1(O)c2cc(Cl)ccc2NC1N	3D7	-	-	0.028 µM
N=C(N)c1cccc(OCCCCCOc2cccc(C(=N)N)c2)c1	W2	-	hypoxanthine uptake	0.085 µM
C=CCOc1ccc(/C=C/C(=O)c2ccco2)cc1OC	3D7	-	SYBR Green	95 µM
CN(Cc1ccc(N(C)C)cc1)Cc1cccc(CNc2ccnc3cc(Cl)ccc23)c1	D10	-	-	>1 µM
COC(=O)c1ccc(-c2cc(C#N)cc(C3(C4CCC4)C(C#N)=C(N)Oc4n[nH]c(C)c43)c2)s1	NF54	-	radiometric	0.04 µM
OCCNc1nc(NCCCNc2ccnc3cc(Cl)ccc23)nc(N2CCOCC2)n1	D6	-	-	0.5 µM
COC(=O)C1=C(C)N(Cc2ccc(C(F)(F)F)cc2)C(=NCc2cccc(C(F)(F)F)c2)NC1c1ccccc1	GB4	-	SYBR Green / fluorescence	0.04 µM
CCOC(=O)c1ccc(-c2ccc([N+](=O)[O-])cc2)nc1C	D10	-	LDH	61 µM
C=CCOc1ccc(/C=C/C2C(=O)NC(=O)NC2=O)cc1OC	3D7	-	SYBR Green	>100 µM
CCCCCCCCCCCC(=O)NC(CCCC[NH3+])C(=O)CCCCCC(=O)NCCCCCC(=O)NC(CCCC[NH3+])C(N)=O	NF54	-	hypoxanthine uptake	1 µM
COc1ccc(Nc2nc(NCCCNc3ccnc4cc(Cl)ccc34)nc(N3CCOCC3)n2)cc1	W2	-	-	0.15 µM
CC(C)=CC1CC([C@@H]2CC[C@]3(C)C4CC[C@H]5C(C)(C)[C@@H](O)CC[C@]5(C)[C@H]4CC[C@@]23C)CO1	D10	-	LDH	128 µM
COC(=O)CCS(=O)(=O)N(C)c1cc(C#N)cc(C2(C(C)C)C(C#N)=C(N)Oc3n[nH]c(C)c32)c1	NF54	-	radiometric	0.45 µM
COc1cc2nc(N3CCCN(C)CC3)nc(NC3CCN(Cc4ccccc4)CC3)c2cc1OC	3D7	-	fluorescence	0.075 µM
COc1cc(C(=N)N)ccc1OCCCOc1ccc(C(=N)N)cc1OC	D6	-	hypoxanthine uptake	0.197 µM
O=C(CCCNc1ccnc2cc(Cl)ccc12)N[C@H]1C(=O)N(c2ccc(F)cc2)[C@H]1/C=C/c1ccccc1	W2	Chloroquine-resistant	flow cytometry	0.1421 µM
Cc1[nH]nc2c1C(c1cc(C#N)cc(N3CCOCC3)c1)(C1CCC1)C(C#N)=C(N)O2	NF54	-	radiometric	>2.4 µM
Clc1ccc2c(NCCCCN3CCN(C(c4ccccc4)c4ccccc4)CC3)ccnc2c1	Dd2	-	SYBR Green / fluorescence	0.0013 µM
N=C(N)c1ccc(OCCCCCCOc2ccc(C(=N)N)cc2)cc1	D6	-	hypoxanthine uptake	0.123 µM
CN(Cc1ccc(Cl)cc1)Cc1ccccc1CNc1ccnc2cc(Cl)ccc12	D10	-	-	>1 µM
COc1ccc(/C=C/C(=O)c2ccc(-n3cnc4ccccc43)cc2)c(OC)c1	-	-	-	1.1 µg/mL
C=CCOc1ccc(/C=C/C(=O)c2cc3ccccc3oc2=O)cc1OC	3D7	-	SYBR Green	100 µM
COc1cc(/C=C/C(=O)c2ccc(-n3cnc4ccccc43)cc2)cc(OC)c1OC	-	-	-	7.6 µg/mL
CCCCOC(=O)CC[C@H](NC(=O)c1ccc(-c2cc(C#N)cc(C3(C(C)C)C(C#N)=C(N)Oc4n[nH]c(C)c43)c2)s1)C(=O)OCCCC	NF54	-	radiometric	2.08 µM
CCCCCCCCCCCC(=O)NC(CCCC[NH3+])C(=O)NC(CCCC[NH3+])C(=O)NCCCCCCCCCCCC(=O)NC(CCCC[NH3+])C(=O)NC(C=O)CCCC[NH3+]	NF54	-	hypoxanthine uptake	>10 µM
O=C1[C@@H](NCCCNc2ccnc3cc(Cl)ccc23)[C@@H](/C=C/c2ccccc2)N1c1ccc(F)cc1	W2	Chloroquine-resistant	flow cytometry	0.2042 µM
N=C(N)c1ccc(OCCCCOc2ccc(C(=N)N)cc2[N+](=O)[O-])c([N+](=O)[O-])c1	W2	-	hypoxanthine uptake	0.112 µM
CCCCCCCCCCCC(=O)NC(CCCC[NH3+])C(=O)NCCCC(=O)NC(CCCC[NH3+])C(=O)NCCCC(=O)NC(CCCC[NH3+])C(=O)NCCCC(=O)NC(CCCC[NH3+])C(N)=O	NF54	-	hypoxanthine uptake	>10 µM
COc1ccc(/C=C/C(=O)c2ccc(-n3cncn3)cc2)c(OC)c1	-	-	-	3.38 µg/mL
O=C(Nc1cc(C(F)(F)F)ccc1-n1cncn1)C1(c2ccccc2F)CC1	3D7A	-	-	0.052 µM

The first 6 rows once more:

smiles	strain	mutations	method	value
Cc1[nH]nc2c1C(c1cc(C#N)cc(-c3ccc(C(=O)N(C)C)s3)c1)(C(C)C)C(C#N)=C(N)O2	V1/S	-	radiometric	0.092 µM
Cn1nc(C(F)(F)F)c(-c2ccc(Br)cc2)c1NC(=O)Nc1ccc(F)cc1F	GNF-Pf4492R-2	GNF-Pf4492-resistant I203L/P990R	SYBR Green / fluorescence	0.811 µM
N=C(N)c1ccc(OCCOc2ccc(C(=N)N)cc2N)c(N)c1	D6	-	hypoxanthine uptake	0.779 µM
O=C(Nc1cc(C(F)(F)F)ccc1-n1cncn1)C1(c2cccc(C(F)(F)F)c2)CC1	HB3	-	-	0.005 µM
CCCCCCCCCCCC(=O)NC(CCCC[NH3+])C(=O)NC(CCCC[NH3+])C(=O)NCCCCCCCC(=O)NC(CCCC[NH3+])C(N)=O	NF54	-	hypoxanthine uptake	>10 µM
COC(=O)C1=C(C)N(Cc2ccc(C(F)(F)F)cc2)C(=NCc2cccc(C(F)(F)F)c2)NC1c1cccc(Cl)c1	7G8	-	SYBR Green / fluorescence	5.5 µM